Compound potency records, mixed from different reports. Data source: NIAID ChemDB in PubChem.

All rows: enzyme or target tests

Inhibition is in % at the dose shown (toxicity tests: loss of growth or viability). Rows are shuffled and stem from different studies. ICn is the concentration giving n% inhibition. a–b is a range or a potency band. Blank or dashed fields: not listed here.

compound | read by | protein | dose | strain | measure | agent | value
O=C1/C(=C\c2ccc(-c3cc(C(F)(F)F)ccc3Cl)o2)SC(=S)N1NS(=O)(=O)c1ccccc1 | - | NS5B polymerase | - | - | IC50 | Hepatitis C virus | ≤30 µM
O=C(O)c1sc(-c2ccccc2)cc1N(C(=O)c1ccc(Cl)cc1Cl)C1CCCNC1 | - | NS3 ATPase | - | - | IC50 | Hepatitis C virus | <5 µM
O=C(O)[C@H](Cc1ccccc1)N(Cc1ccc(-c2nc3ccccc3o2)cc1)c1ccc(Cl)cc1Cl | - | RNA-dependent RNA polymerase | - | - | IC50 | Hepatitis C virus | <5 µM
N#Cc1cccc(NC(=O)Nc2cccc(-c3nc(C(=O)O)c(O)c(=O)[nH]3)c2)c1 | - | HCV polymerase | - | - | IC50 | Hepatitis C virus | <100 µM
CSCC[C@H](NC(=O)[C@H](CCC(=O)O)NC(=O)[C@@H](N)CC(=O)O)C(=O)N[C@@H](CCC(=O)O)C(=O)N[C@@H](CCC(=O)O)C(=O)N[C@@H](CO)C(=O)O | - | NS3 protease | - | - | IC50 | Hepatitis C virus | 41 µM
O=C(Nc1ccc2cn[nH]c2c1)c1cc(N2CCNCC2)c(F)cc1F | - | Nonstructural protein 5B | 1 µg/mL | - | inhibition | Hepatitis C virus | 24%
CSCC[C@H](NC(=O)[C@H](CCC(=O)O)NC(=O)[C@@H](N)CC(=O)O)C(=O)N[C@@H](CCC(=O)O)C(=O)N[C@@H](CCC(=O)O)C(=O)N(C#N)[C@@H](C)C(=O)O | - | NS3 protease | - | - | IC50 | Hepatitis C virus | 19 µM
Cc1cc(Cl)ccc1C(=O)N(Cc1cccc(Br)c1)[C@@H](Cc1ccccc1)C(=O)O | - | RNA-dependent RNA polymerase | - | - | IC50 | Hepatitis C virus | <5 µM
O=C(Nc1ccc2cn[nH]c2c1)c1cc(C2CCNCCN2)c(F)cc1F | - | Nonstructural protein 5B | 1 µg/mL | - | inhibition | Hepatitis C virus | 29%
CC(=O)N[C@H](C(=O)N[C@@H](CCC(=O)O)C(=O)N[C@@H](CC1CCCCC1)C(=O)N[C@@H](CS)C(=O)O)C(c1ccccc1)c1ccccc1 | - | HCV NS3 protease | - | - | IC50 | Hepatitis C virus | 30 µM
O=C(O)[C@H](Cc1ccccc1)N(Cc1ccc2ccccc2c1)c1ccc(Cl)cc1Cl | - | RNA-dependent RNA polymerase | - | - | IC50 | Hepatitis C virus | <5 µM
O=C(NC(=O)c1sccc1[N+](=O)[O-])Nc1ccsc1-c1nc(C(=O)O)c(O)c(=O)[nH]1 | - | HCV polymerase | - | - | IC50 | Hepatitis C virus | <25 µM
O=C1NC(=S)S/C1=C/c1ccc(-c2cc(Cl)ccc2Cl)o1 | - | NS5B polymerase | - | - | IC50 | Hepatitis C virus | >30 µM
COc1cc(C)c(S(=O)(=O)N(Cc2ccc(-c3cc4ccccc4o3)cc2)[C@@H](Cc2ccccc2)C(=O)O)c(C)c1C | - | RNA-dependent RNA polymerase | - | - | IC50 | Hepatitis C virus | <5 µM
CC(=O)N[C@@H](CCC(=O)O)C(=O)N[C@H](C(=O)N[C@@H](CCC(=O)O)C(=O)N[C@@H](CC1CCCCC1)C(=O)N[C@@H](CS)C(=O)O)C(c1ccccc1)c1ccccc1 | - | HCV NS3 protease | - | - | IC50 | Hepatitis C virus | 1.4 µM
C=CCN(C(=O)CCC(C)C)c1cc(-c2ccccc2)sc1C(=O)O | - | NS3 ATPase | - | - | IC50 | Hepatitis C virus | 5–20 µM
O=C(Nc1ccc2cn[nH]c2c1)c1cc(N2CCC(O)CC2)c(F)cc1F | - | Reverse transcriptase | 0.01 µg/mL | - | inhibition | Hepatitis B virus | 24%
Cc1cccc(Cl)c1CNC(=O)Nc1ccsc1-c1nc(C(=O)O)c(O)c(=O)[nH]1 | - | HCV polymerase | - | - | IC50 | Hepatitis C virus | <25 µM
CC[C@H](C)[C@H](NC(=O)[C@@H](NC(=O)[C@H](CCC(=O)O)NC(C)=O)C(c1ccccc1)c1ccccc1)C(=O)N[C@@H](CC1CCCCC1)C(=O)N[C@@H](CS)C(=O)O | - | HCV NS3 protease | - | - | IC50 | Hepatitis C virus | 2.4 µM
CN1C(=O)/C(=C\c2ccc([N+](=O)[O-])cc2)SC1=S | - | NS5B polymerase | - | - | IC50 | Hepatitis C virus | ≤30 µM
CC(=O)N[C@@H](CC(=O)O)C(=O)N[C@H](CC(=O)O)C(=O)N[C@@H](CC(C)C)C(=O)N[C@@H](CCC(=O)O)C(=O)N[C@@H](CC1CCCCC1)C(=O)N[C@@H](CS)C(=O)O | - | HCV NS3 protease | - | - | IC50 | Hepatitis C virus | 0.122 µM
COc1ccccc1CNC(=O)Nc1cscc1-c1nc(C(=O)O)c(O)c(=O)[nH]1 | - | HCV polymerase | - | - | IC50 | Hepatitis C virus | <25 µM
O=C(Nc1ccc2[nH]ncc2c1)c1cc(C2CCNCCN2)c(F)cc1F | - | Reverse transcriptase | 0.01 µg/mL | - | inhibition | Hepatitis B virus | 30%
O=C1NC(=S)S/C1=C/c1ccc(Cl)c(Cl)c1 | - | NS5B polymerase | - | - | IC50 | Hepatitis C virus | ≤30 µM
CC(=O)N[C@@H](CC(=O)O)C(=O)N[C@@H](CCC(=O)O)C(=O)N[C@H](C(=O)N[C@@H](CCC(=O)O)C(=O)N[C@@H](CC1CCCCC1)C(=O)N[C@@H](CS)C(=O)O)C(c1ccccc1)c1ccccc1 | - | HCV NS3 protease | - | - | IC50 | Hepatitis C virus | 0.05 µM
NC1CCC(N(C(=O)c2ccc(Cl)cc2Cl)c2cc(-c3ccccc3)sc2C(=O)O)CC1.O=C([O-])C(F)(F)F | - | NS3 ATPase | - | - | IC50 | Hepatitis C virus | <5 µM
CC[C@H](C)[C@H](NC(=O)[C@H](CC(C)C)NC(=O)[C@@H](CCC(=O)O)NC(=O)[C@H](CC(=O)O)NC(C)=O)C(=O)N[C@@H](CC1CCCCC1)C(=O)N[C@@H](CS)C(=O)O | - | HCV NS3 protease | - | - | IC50 | Hepatitis C virus | 0.015 µM
O=C(O)c1nc(-c2cccc(OCc3ccccc3)c2[N+](=O)[O-])[nH]c(=O)c1O | - | HCV polymerase | - | - | IC50 | Hepatitis C virus | <100 µM
C=CCN(C(=O)CC1CCCC1)c1cc(-c2ccccc2)sc1C(=O)O | - | NS3 ATPase | - | - | IC50 | Hepatitis C virus | <5 µM
CC(=O)N[C@@H](CC(=O)O)C(=O)N[C@@H](CCC(=O)O)C(=O)N[C@@H](Cc1ccc(Cl)cc1)C(=O)N[C@@H](CCC(=O)O)C(=O)N[C@@H](CC1CCCCC1)C(=O)N[C@@H](CS)C(=O)O | - | HCV NS3 protease | - | - | IC50 | Hepatitis C virus | 0.3 µM
CC(C)[C@H](NC(=O)[C@H](CC(=O)O)NC(=O)[C@@H](N)CCC(=O)O)C(=O)N[C@H](C(=O)N[C@@H](CS)C(=O)N[C@@H](CS)C(=O)O)C(C)C | - | NS3 protease | - | - | IC50 | Hepatitis C virus | 5.3 µM
CN1CCN(c2cc(C(=O)Nc3ccc4cn[nH]c4c3)c(F)cc2F)CC1 | - | Reverse transcriptase | 0.1 µg/mL | - | inhibition | Hepatitis B virus | 33%
O=C(Nc1csc(-c2nc(C(=O)O)c(O)c(=O)[nH]2)c1)c1cccs1 | - | HCV polymerase | - | - | IC50 | Hepatitis C virus | <25 µM
N[C@H](C(=O)N[C@@H](CCC(=O)O)C(=O)N[C@@H](CC1CCCCC1)C(=O)N[C@@H](CS)C(=O)O)C(c1ccccc1)c1ccccc1 | - | NS3 protease | - | - | IC50 | Hepatitis C virus | 30 µM
C=CC(=O)NCC(=O)N1C[C@H](Oc2nccc3ccc(Br)cc23)C[C@H]1C(=O)N[C@]1(C(=O)NS(=O)(=O)C2CC2)C[C@H]1C=C | FRET | Nonstructural protein 3/4A | - | 1b R155K | IC50 | Hepatitis C virus | 0.065 µM
O=c1cc(-c2ccccc2)oc2ccccc12 | SYBR Green | Replicase complex | 20 µM | J4 | inhibition | Hepatitis C virus | 13.1%
CN(C(=O)c1ccccc1)c1cc(-c2ccccc2)sc1C(=O)O | - | NS3 ATPase | - | - | IC50 | Hepatitis C virus | >20 µM
CSCC[C@H](NC(=O)[C@H](CCC(=O)O)NC(=O)[C@@H](N)CC(=O)O)C(=O)N[C@@H](CCC(=O)O)C(=O)N[C@@H](CC(C)C)C(=O)N[C@@H](CS)C(=O)O | - | NS3 protease | - | - | IC50 | Hepatitis C virus | 1.1 µM
CC(=O)c1cc(-c2cc(NS(=O)(=O)c3ccc(C)cc3C)c(C(=O)O)s2)cs1 | - | NS3 ATPase | - | - | IC50 | Hepatitis C virus | <5 µM
O=C(Nc1ccc2[nH]ncc2c1)c1cc(N2CCN(CCO)CC2)c(F)cc1F | - | Nonstructural protein 5B | 1 µg/mL | - | inhibition | Hepatitis C virus | 15%
O=C1C[C@@H](c2ccc(O)cc2)Oc2cc(O)cc(O)c21 | SYBR Green | Replicase complex | 20 µM | J4 | inhibition | Hepatitis C virus | 6%
CN1CCN(c2cc(C(=O)Nc3ccc4[nH]ncc4c3)c(F)cc2F)CC1 | - | Reverse transcriptase | 1 µg/mL | - | inhibition | Hepatitis B virus | 68%
O=C(O)c1nc(C(OCc2ccccc2)c2cccs2)[nH]c(=O)c1O | - | HCV polymerase | - | - | IC50 | Hepatitis C virus | <100 µM
CC1CCC(C(=O)N(CC2CC[NH2+]CC2)c2cc(-c3ccccc3)sc2C(=O)O)CC1.O=C([O-])C(F)(F)F | - | NS3 ATPase | - | - | IC50 | Hepatitis C virus | <5 µM
O=C1/C(=C\c2ccc(Cl)c(Cl)c2)SC(=S)N1NS(=O)(=O)c1ccc(F)cc1 | - | NS5B polymerase | - | - | IC50 | Hepatitis C virus | ≤30 µM
O=C1CC(c2ccccc2)Oc2ccccc21 | SYBR Green | Replicase complex | 20 µM | J4 | inhibition | Hepatitis C virus | 7.5%
CCCC1CCC(C(=O)N(c2cc(-c3ccccc3)sc2C(=O)O)C(C)C)CC1 | - | NS3 ATPase | - | - | IC50 | Hepatitis C virus | <5 µM
CC(=O)N[C@@H](CC(=O)O)C(=O)N[C@@H](Cc1ccc([N+](=O)[O-])cc1)C(=O)N[C@@H](CC(C)C)C(=O)N[C@@H](CCC(=O)O)C(=O)N[C@@H](CC1CCCCC1)C(=O)N[C@@H](CS)C(=O)O | - | HCV NS3 protease | - | - | IC50 | Hepatitis C virus | 0.24 µM
O=c1c(O)c(-c2ccc(O)cc2)oc2cc(O)ccc12 | SYBR Green | Replicase complex | 20 µM | J4 | inhibition | Hepatitis C virus | 63.9%
CC(C)[C@H](N)C(=O)Nc1ccsc1-c1nc(C(=O)O)c(O)c(=O)[nH]1 | - | HCV polymerase | - | - | IC50 | Hepatitis C virus | <25 µM
CSCC[C@H](NC(=O)[C@H](CCC(=O)O)NC(=O)[C@@H](N)CC(=O)O)C(=O)N[C@@H](CCC(=O)O)C(=O)N[C@@H](CCC(=O)O)C(=O)N[C@@H](CS)C(=O)NS(=O)(=O)C(C)=O | - | NS3 protease | - | - | IC50 | Hepatitis C virus | 4 µM
O=C(Nc1ccsc1-c1nc(C(=O)O)c(O)c(=O)[nH]1)OCc1ccc2ccccc2c1 | - | HCV polymerase | - | - | IC50 | Hepatitis C virus | <25 µM
CC1=CCC(C(=O)N(c2cc(-c3ccccc3)sc2C(=O)O)C(C)C)C1 | - | NS3 ATPase | - | - | IC50 | Hepatitis C virus | <5 µM

Again, the opening 4 rows:

| compound | read by | protein | dose | strain | measure | agent | value |
|---|---|---|---|---|---|---|---|
| O=C1/C(=C\c2ccc(-c3cc(C(F)(F)F)ccc3Cl)o2)SC(=S)N1NS(=O)(=O)c1ccccc1 | - | NS5B polymerase | - | - | IC50 | Hepatitis C virus | ≤30 µM |
| O=C(O)c1sc(-c2ccccc2)cc1N(C(=O)c1ccc(Cl)cc1Cl)C1CCCNC1 | - | NS3 ATPase | - | - | IC50 | Hepatitis C virus | <5 µM |
| O=C(O)[C@H](Cc1ccccc1)N(Cc1ccc(-c2nc3ccccc3o2)cc1)c1ccc(Cl)cc1Cl | - | RNA-dependent RNA polymerase | - | - | IC50 | Hepatitis C virus | <5 µM |
| N#Cc1cccc(NC(=O)Nc2cccc(-c3nc(C(=O)O)c(O)c(=O)[nH]3)c2)c1 | - | HCV polymerase | - | - | IC50 | Hepatitis C virus | <100 µM |